# From patent publication US20240181022A1, “AMURINS LYSINS, AND LYSIN-ANTIMICROBIAL PEPTIDE (AMP) CONSTRUCTS ACTIVE AGAINST GRAM-NEGATIVE BACTERIA” (priority 2021, published 2024)
# B1: GN370: lysin-AMP construct, SEQ ID NO: 149: MIDR, FIRL and NPTH moieties N-terminal to GN202 lysin (protein)
# chain: MIDRFIRLNPTHGPRRPRRPGRRAPVRTSQRGIDLIKSFEGLRLSAYQDSVGVWTIGYGTTRGVTRYMTITVEQAERMLSNDIQRFEPELDRLAKVPLNQNQWDALMSFVYNLGAANLASSTLLDLLNKGDYQGAADQFPHWVNAGGKRLDGLVKRRAAERALFLEPLS
# modifications: GN370 lysin
# Test system: P. aeruginosa strain ATCC 27853
# Type: cell-based, Pseudomonas aeruginosa
molecule,measurement,setting,value
B1,MIC change over 28-day serial passage,DCAAT media,did not result in any increase in MIC
same,"MIC increase after 28 days, agent alone",in the absence of GN370 (GN370: alone),No MIC increases
